Percent effect of library compounds

Source: ChEMBL document CHEMBL3988442, “University of Dundee, Small-Polar-MMV Screening Library” (2021).

Mtb glucose medium: 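Phenotypic screen: M. tuberculosis growth, glucose 7H9 medium, 3 days; the read-out is not stated. Concentration: 500 µM. Higher reads as more growth inhibition (inferred: compounds with an IC50 in retests scored well above the rest). About 18,000 compounds were tested under these conditions; 7.9% (about 1,400) showed 50% or more at least once.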
Mtb cholesterol medium: 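Whole-cell growth test on Mycobacterium tuberculosis, read after 4 days in a medium based on cholesterol and the lipid DPPC; the read-out is not stated. Compounds at 500 µM. Higher reads as more growth inhibition (inferred: compounds with an IC50 in retests scored well above the rest). Size under these conditions: about 18,000 compounds, about 900 of them at 50% or above in at least one test.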

The filed quantity is “Percent Effect” (%).
The controls that fix the scale are not given in the record; negative values are as filed.
This is part of a subset picked to be rich in strong results.

{"compound": "Cc1cc(C)cc(C(=O)N2CCC3(CC2)OCCO3)c1", "Mtb cholesterol medium": 15.95}
{"compound": "NS(=O)(=O)c1ccc(N2C(=O)C=CC2=O)cc1", "Mtb glucose medium": 22.62}
{"compound": "O=C1CCCCC1c1ccoc1", "stereo": "centres unmarked", "Mtb glucose medium": -21.83}
{"compound": "COc1ccc(C(=O)Nc2cc(Br)c(=O)n(C)c2)cc1", "Mtb cholesterol medium": 20.42}
{"compound": "CNCc1ccc2nsnc2c1", "Mtb glucose medium": -0.5079}
{"compound": "COCc1cccc(C(=O)NCC[C@@H]2CCCN2)c1", "Mtb glucose medium": 18.55}
{"compound": "COc1ccc(C(=O)N2CCCO2)cc1OC", "Mtb glucose medium": 9.501}
{"compound": "CCCC(NC)c1ccccn1", "stereo": "centres unmarked", "Mtb glucose medium": -3.697}
{"compound": "CC(C)COCC(O)CNC(=O)C1(C#N)CCCC1", "stereo": "centres unmarked", "Mtb glucose medium": 21.58}
{"compound": "CNC1CCN(C(=O)c2ccsc2)CC1", "Mtb glucose medium": -7.028, "Mtb cholesterol medium": -13.94}
{"compound": "CC(C)c1cc(C(=O)NCCN(C)S(C)(=O)=O)no1", "Mtb glucose medium": 31.38, "Mtb cholesterol medium": -1.445}
{"compound": "COCC(=O)N(C)c1ccccc1", "Mtb glucose medium": -6.743, "Mtb cholesterol medium": -6.933}
{"compound": "NCCc1nc(N)no1", "Mtb cholesterol medium": -7.559}
{"compound": "COCC(N)C1CCOCC1", "stereo": "centres unmarked", "Mtb glucose medium": 3.955}
{"compound": "CC(NC(=O)CCCN1CCCCC1)c1cnn(C)c1", "stereo": "centres unmarked", "Mtb glucose medium": 6.015}
{"compound": "Cc1ccc(C(=O)Nc2nc(C)cs2)cn1", "Mtb cholesterol medium": 36.73}
{"compound": "N[C@@H]1C[C@@H]2CC[C@H]1O2", "Mtb cholesterol medium": 2.644}
{"compound": "CC(C)(C)OC(=O)NCC1CNCCO1", "stereo": "centres unmarked", "Mtb glucose medium": 8.563}
{"compound": "CC(=O)N1CCC(OCCOc2ccccc2)CC1", "Mtb glucose medium": 46.24, "Mtb cholesterol medium": 27.67}
{"compound": "Cc1c[nH]c(CNC(=O)CCOc2ccccc2)n1", "Mtb glucose medium": 32.1}
{"compound": "C1CCC(COCCc2noc(C3CNC3)n2)C1", "Mtb glucose medium": 107.3, "Mtb cholesterol medium": 115.9}
{"compound": "Cc1ccc2nc(CN3CCOCS3(=O)=O)cn2c1", "Mtb glucose medium": 12.19}
{"compound": "CCN1CCN(CCOc2cccc(C(C)=O)c2)CC1", "Mtb glucose medium": -15.35}
{"compound": "CCc1nn(C)c(N)c1CC", "Mtb glucose medium": 20.61}
{"compound": "Cc1csc(N2CCN(C(=O)c3scnc3C)CC2)n1", "Mtb glucose medium": 33.72}
{"compound": "C[C@@H](O)CNC(=O)NCCCc1nc2c(s1)CCCC2", "Mtb glucose medium": 36.92}
{"compound": "Cc1nc(CCNC(=O)c2ccc(=O)n(C)c2)sc1C", "Mtb glucose medium": 18.79}
{"compound": "NC(=O)C1CNCCO1", "stereo": "centres unmarked", "Mtb cholesterol medium": 3.995}
{"compound": "C[C@@H](CO)CCNc1cc(C2CC(N)C2)ncn1", "stereo": "some centres unmarked", "Mtb glucose medium": 5.604}
{"compound": "O=S(=O)(Cc1ccc(Cl)cc1Cl)CC(O)CO", "stereo": "centres unmarked", "Mtb glucose medium": 27.8}
{"compound": "COc1cn(C)c(C(=O)Nc2cccnc2)cc1=O", "Mtb glucose medium": 7.806}
{"compound": "CNC(=O)NC(=O)CCN1CCN(S(C)(=O)=O)CC1", "Mtb glucose medium": 65.96, "Mtb cholesterol medium": 50.39}
{"compound": "Cc1nccn1CC1CCN(CC(O)CO)CC1", "stereo": "centres unmarked", "Mtb cholesterol medium": 4.607}
{"compound": "CCOc1ncccc1CN(C)C(=O)c1ccco1", "Mtb glucose medium": 32.41}
{"compound": "Cc1[nH][nH]c(=O)c1CCO", "Mtb cholesterol medium": 1.001}

For reference, 3 entries once more:

{"compound": "Cc1[nH][nH]c(=O)c1CCO", "Mtb cholesterol medium": 1.001}
{"compound": "CC(C)(C)OC(=O)NCC1CNCCO1", "stereo": "centres unmarked", "Mtb glucose medium": 8.563}
{"compound": "N[C@@H]1C[C@@H]2CC[C@H]1O2", "Mtb cholesterol medium": 2.644}